Pooled drug test results. Numbers come from NIAID ChemDB, via PubChem.

Shared fields: whole-cell or culture tests

Rows are shuffled and stem from different studies. Inhibition is in % at the dose shown (toxicity tests: loss of growth or viability). Blank or dashed fields: not listed here.

structure | endpoint | species | strain | conditions | dose | changes | method | value
CO[C@H]1/C=C/O[C@@]2(C)Oc3c(C)c(O)c4c(O)c(c(/C=N/N5CCN(C6CCCC6)CC5)c(O)c4c3C2=O)NC(=O)/C(C)=C\C=C\[C@H](C)[C@H](O)[C@@H](C)[C@@H](O)[C@@H](C)[C@H](OC(C)=O)[C@@H]1C | MIC | Mycobacterium avium intracellulare | LPR |  |  |  |  | 0.5 µg/mL
Cc1ccc2oc(=S)n(-c3ccc(F)cc3)c(=S)c2c1 | MIC | Mycobacterium kansasii | 6509/96 | 21 d |  |  |  | 8 µM
CCc1nc2ccc(Cl)cn2c1C(=O)NCc1ccc(N2CCC(c3ccc(OC(F)(F)F)cc3)CC2)cc1 | MIC | Mycobacterium intracellulare |  |  |  |  | resazurin | <2 µM
CCc1nc(N)nc(N)c1-c1ccc(Cl)cc1 | MIC | Mycobacterium avium complex | DW19 |  |  |  |  | 32 µg/mL
CC[C@H]1OC(=O)[C@H](C)[C@@H](OC2C[C@@](C)(OC)[C@@H](OC(=O)c3ccccc3)[C@H](C)O2)[C@H](C)[C@@H](O[C@@H]2O[C@H](C)C[C@H](N(C)C)[C@H]2O)C(C)(O)C[C@@H](C)/C(=N\OCCCOc2ccccc2)[C@H](C)[C@@H](O)[C@]1(C)O | MIC | Mycobacterium avium complex | 20096 (clarithromycin-resistant) |  |  |  |  | 1.56 µg/mL
COc1ccc2oc(=S)n(-c3cccc(Cl)c3)c(=S)c2c1 | MIC | Mycobacterium kansasii | My 235/80 | 21 d |  |  |  | 32 µM
Cc1ccn2c(C(=O)NCc3ccc(N4CCN(c5ccc(OC(F)(F)F)cc5)[C@H](C)C4)c(F)c3)c(C)nc2c1 | inhibition | Mycobacterium avium |  |  | 0.07 µM |  | fluorescence | 85%
CCCCCCCCCCCC1OC(c2ccncc2)=NN1C(C)=O | MIC | Mycobacterium intracellulare |  |  |  |  | agar | 6 µg/mL
CC[C@H]1OC(=O)[C@H](C)[C@@H](O[C@H]2C[C@@](C)(OC)[C@@H](OC(C)=O)[C@H](C)O2)[C@H](C)[C@@H](O[C@@H]2O[C@H](C)C[C@H](N(C)C)[C@H]2O)C(C)(O)C[C@@H](C)/C(=N\OCCCCCc2ccccc2)[C@H](C)[C@@H](O)[C@]1(C)O | MIC | Mycobacterium avium complex | 20092 (clarithromycin-resistant) |  |  |  |  | 3.13 µg/mL
O=c1oc2ccc(F)cc2c(=S)n1-c1ccccc1 | MIC | Mycobacterium kansasii | 6509/96 | 14 d |  |  |  | 0.5 µM
Cc1cn2c(C(=O)NCc3ccc(N4CCN(c5ccc(OC(F)(F)F)cc5)[C@@H](C)C4)c(F)c3)c(C)nc2s1 | inhibition | Mycobacterium avium |  |  | 0.82 µM |  | fluorescence | 85%
CCCCNNC(=O)O[C@H]1[C@H](O[C@@H]2[C@@H](C)[C@H](O[C@H]3C[C@@](C)(OC)[C@@H](OC(C)=O)[C@H](C)O3)[C@@H](C)C(=O)O[C@H](CC)[C@@](C)(O)[C@H](O)[C@@H](C)/C(=N/OCCCC3CCCCC3)[C@H](C)CC2(C)O)O[C@H](C)C[C@@H]1N(C)C | MIC | Mycobacterium avium complex | 20092 (clarithromycin-resistant) |  |  |  |  | 0.78 µg/mL
COc1ccc2oc(=S)n(-c3ccc(F)cc3)c(=S)c2c1 | MIC | Mycobacterium kansasii | 6509/96 | 21 d |  |  |  | 16 µM
CCCCCCCC1SCC(=O)N1NC(=O)c1ccncc1 | MIC | Mycobacterium intracellulare |  |  |  |  | agar | 50 µg/mL
Cc1ccc2oc(=O)n(-c3ccc(Br)cc3)c(=S)c2c1 | MIC | Mycobacterium kansasii | My 235/80 | 14 d |  |  |  | 2 µM
CCCn1ncc2cc3c(c(OC(C)=O)c2c1=O)-c1c(c(OC)c2c(c1OC(C)=O)C(=O)c1cc(OC(C)=O)c(C)c(OC(C)=O)c1C2=O)CC3 | MIC | Mycobacterium phlei | SG346 |  |  |  |  | 1600 µg/mL
CC[C@H]1OC(=O)[C@H](C)[C@@H](O)[C@H](C)[C@@H](O[C@@H]2O[C@H](C)C[C@H](N(C)C)[C@H]2O)C(C)(O)C[C@@H](C)/C(=N\OCCCOc2ccccc2)[C@H](C)[C@@H](O)[C@]1(C)O | MIC | Mycobacterium avium complex | 20092 (clarithromycin-resistant) |  |  |  |  | >50 µg/mL
CCc1nc2cc(Cl)ccn2c1C(=O)NCc1ccc(N2CCN(c3ccc(OC(F)(F)F)cc3)[C@H](C)C2)c(F)c1.Cl | inhibition | Mycobacterium avium |  |  | 0.62 µM |  | fluorescence | 85%
CC[C@H]1OC(=O)[C@H](C)[C@@H](OC(=O)Cc2ccccn2)[C@H](C)[C@@H](O[C@@H]2O[C@H](C)C[C@H](N(C)C)[C@H]2O)C(C)(O)C[C@@H](C)/C(=N\OCCCOc2ccccc2)[C@H](C)[C@@H](O)[C@]1(C)O | MIC | Mycobacterium avium complex | 20096 (clarithromycin-resistant) |  |  |  |  | 12.5 µg/mL
Nc1ccc(C(=O)O)c(O)c1 | MIC | Mycobacterium bovis BCG |  |  |  | DHFR-overexpressing | fluorescence | >20 µM
CO[C@H]1/C=C/O[C@@]2(C)Oc3c(C)c(O)c4c(=O)c(c5oc6cc(N7CCN(CC(C)C)CC7)cc(=O)c6nc5c4c3=C2O)NC(=O)/C(C)=C\C=C\[C@H](C)[C@H](O)[C@@H](C)[C@@H](O)[C@@H](C)[C@H](OC(C)=O)[C@@H]1C | MIC | Mycobacterium ulcerans | ATCC 35840 |  |  |  |  | 0.025 µg/mL
CCc1ccccc1OCCCON1C(N)=NC(N)=NC1(C)C | MIC | Mycobacterium bovis BCG |  |  |  |  | fluorescence | 2.8 µM
CC[C@H]1OC(=O)[C@H](C)[C@@H](OC2C[C@@](C)(OC)[C@@H](OC(=O)CCCCc3ccccc3)[C@H](C)O2)[C@H](C)[C@@H](O[C@@H]2O[C@H](C)C[C@H](N(C)C)[C@H]2O)C(C)(O)C[C@@H](C)/C(=N\OCCCOc2ccccc2)[C@H](C)[C@@H](O)[C@]1(C)O | MIC | Mycobacterium avium complex | 20039 (clarithromycin-susceptible) |  |  |  |  | 0.78 µg/mL
CCCCOc1ccc(N2CCN(c3ccc(CNC(=O)c4c(CC)nc5cc(F)ccn45)cc3F)C[C@@H]2C)cc1.Cl | inhibition | Mycobacterium avium |  |  | 0.0074 µM |  | fluorescence | 85%
Cc1ccn2c(C(=O)NCc3ccc(N4CCC(c5ccc(OC(F)(F)F)cc5)CC4)cc3)c(C)nc2c1 | MIC | Mycobacterium intracellulare |  |  |  |  | resazurin | <2 µM
CC[C@H]1OC(=O)[C@H](C)[C@@H](O[C@H]2C[C@@](C)(OC)[C@@H](OC(C)=O)[C@H](C)O2)[C@H](C)[C@@H](O[C@@H]2O[C@H](C)C[C@H](N(C)C)[C@H]2OC(=O)NN2CCCC2)C(C)(O)C[C@@H](C)/C(=N\OCCCC2CCCCC2)[C@H](C)[C@@H](O)[C@]1(C)O | MIC | Mycobacterium avium complex | 20039 (clarithromycin-susceptible) |  |  |  |  | 3.13 µg/mL
O=c1oc2ccc(Br)cc2c(=S)n1-c1cccc(Cl)c1 | MIC | Mycobacterium kansasii | My 235/80 | 14 d |  |  |  | 2 µM
Cc1ccc2nc(C)c(C(=O)NCc3ccc(C(F)(F)F)cc3)n2c1 | MIC | Mycobacterium intracellulare |  |  |  |  | resazurin | <2 µM
CC[C@H]1OC(=O)[C@H](C)[C@@H](O[C@H]2C[C@@](C)(OC)[C@@H](OC(C)=O)[C@H](C)O2)[C@H](C)[C@@H](O[C@@H]2O[C@H](C)C[C@H](N(C)C)[C@H]2O)C(C)(O)C[C@@H](C)/C(=N\OCCc2cccs2)[C@H](C)[C@@H](O)[C@]1(C)O | MIC | Mycobacterium avium intracellulare | 20066 (clarithromycin-susceptible) |  |  |  |  | 3.13 µg/mL
Cc1ccn2c(C(=O)NCc3ccc(N4CCN(c5ccc(C(F)(F)F)cn5)CC4)c(F)c3)c(C)nc2c1 | MIC | Mycobacterium intracellulare | ATCC 13950 |  |  |  | resazurin | 0.03125 µg/mL
C[C@@H]1CN(c2c(F)c(N)c3c(=O)c(C(=O)O)cn(C4CC4)c3c2F)C[C@H](C)N1 | MIC | Mycobacterium simiae | ATCC 25275 |  |  |  | broth dilution / visual reading | 0.3 µg/mL
CCc1nc2ccc(Cl)cn2c1C(=O)NCc1ccc(-n2ccc(C(F)(F)F)n2)cc1 | inhibition | Mycobacterium avium |  |  | 0.14 µM |  | fluorescence | 85%
CCCCCCCCC(=O)O[C@H]1[C@H](C)OC(O[C@H]2[C@H](C)[C@@H](O[C@@H]3O[C@H](C)C[C@H](N(C)C)[C@H]3O)C(C)(O)C[C@@H](C)/C(=N\OCCCOc3ccccc3)[C@H](C)[C@@H](O)[C@](C)(O)[C@@H](CC)OC(=O)[C@@H]2C)C[C@@]1(C)OC | MIC | Mycobacterium avium complex | 20092 (clarithromycin-resistant) |  |  |  |  | 6.25 µg/mL

The first 3 rows once more:

CO[C@H]1/C=C/O[C@@]2(C)Oc3c(C)c(O)c4c(O)c(c(/C=N/N5CCN(C6CCCC6)CC5)c(O)c4c3C2=O)NC(=O)/C(C)=C\C=C\[C@H](C)[C@H](O)[C@@H](C)[C@@H](O)[C@@H](C)[C@H](OC(C)=O)[C@@H]1C ; endpoint: MIC ; species: Mycobacterium avium intracellulare ; strain: LPR ; value: 0.5 µg/mL
Cc1ccc2oc(=S)n(-c3ccc(F)cc3)c(=S)c2c1 ; endpoint: MIC ; species: Mycobacterium kansasii ; strain: 6509/96 ; conditions: 21 d ; value: 8 µM
CCc1nc2ccc(Cl)cn2c1C(=O)NCc1ccc(N2CCC(c3ccc(OC(F)(F)F)cc3)CC2)cc1 ; endpoint: MIC ; species: Mycobacterium intracellulare ; method: resazurin ; value: <2 µM